Test system: HCMV
Test: Anti-CMV activity assay, inhibition of HCMV replication in infected HFFs
Assay type: cell-based, human Cytomegalovirus (HCMV)
Details: CC50 noninfected HFFs / EC50 infected HFFs
Description: It has been observed that the infection of human foreskin fibroblasts (HFF) cells with HCMV causes an up regulation of the α3-isoform of the Na^+/K^+-Pump. Therefore the inhibition of HCMV replication by the compounds described herein was tested using procedure described by Cai, H. et al., in Med. Chem. Lett. 2014, 5, 395-399, which is incorporated by reference in its entirety. Generally, inhibition of Towne HCMV: pp28-luciferase activity was measured in cell lysates of HCMV-infected HFFs collected at 72 h post infection (hpi). Virus DNA yield in supernatants of HCMV-infected cells collected at 96 hpi was measured by real-time PCR. Plaque reduction assay performed at 8 days postinfection. Data represent mean values (±SD) of triplicate determinations from three independent experiments.
Inhibition of TB40 HCMV: HFFs were infected with HCMV-TB40 strain at MOI of 1 pfu/cell and treated with compounds listed in Tables 1-3 for 3 days.
The glycosylated cardiotonic steroid compounds were tested for their anti-cytomegalovirus (CMV) activity. Specifically, the compounds were tested for the ability to inhibit HCMV replication. For each compound, the anti-HCMV activity in infected HFFs was expressed as EC50, whereas cytotoxicity in noninfected HFFs was expressed as CC50. Selectivity index (SI), defined as CC50/EC50, was calculated for each compound.

Substance | SI (selectivity index, CC50/EC50)
α-D-Amicetose | 29.46
α-D-Rhamnose | 85.52

From patent US20160176914A1, “GLYCOSYLATED CARDIOTONIC STEROIDS” (priority 2013, published 2016)
